The record followed here is patent US9949945B2, “3′ equatorial-fluorine-substituted neuraminidase inhibitor compounds, compositions and methods for the use thereof as anti-virals” (THE UNIVERSITY OF BRITISH COLUMBIA, priority 2012, dated 2018).

What all share (type): biochemical
Assay [1] has as its target A/Fukui H3N2 E119V (oseltamivir-resistant) NA (Influenza A virus, UniProt A0A0F6NYK2, E119V). As to conditions: read-out: IC50 in the enzyme inhibition assay, A/Fukui H3N2 E119V.
The target of assay [2] is B/Florida E119D (B/Florida/4/2006 mutant 1 E117D) NA (Influenza B virus, UniProt J7JZT1, E117D).
Assay [3] deals with Auckland pH1N1 E119K (A/Auckland/3/2009 mutant 1) NA (Influenza A virus, UniProt C3W5S3, E119K). As to conditions: pH 1.

On to Zanamivir, for which the IC50 in assay [1] was 0.0034 µM; in assay [2] it was above 10 µM; in assay [3], above 100 µM.
